Compound potency records, mixed from different reports. Data source: NIAID ChemDB in PubChem.

Common to all: tests in culture; species: HIV-1; endpoint: EC50

Neighbouring rows are from separate reports.

{"smiles": "Cc1cc(F)ccc1Cc1cc(/C(O)=C/C(=O)C(=O)O)c(=O)n(Cc2ccccc2)c1", "cell line": "MAGI", "value": "1.3 µM"}
{"smiles": "CCCOC1(C(F)(F)F)OC(=O)Nc2ccc(Cl)cc21", "changes": "RT-K103N", "value": "<0.064 µM"}
{"smiles": "CCCC[C@H](NP(=O)(OC[C@@H]1C=C[C@H](n2cc(C)c(=O)[nH]c2=O)O1)Oc1ccccc1)C(=O)OC", "cell line": "CEM", "value": "0.5 µM"}
{"smiles": "COC(=O)C(C)NP(=O)(OC[C@H]1S[C@@H](n2cc(F)c(=O)[nH]c2=O)C[C@@H]1O)Oc1ccccc1", "cell line": "CEM", "value": "21.5 µM"}
{"smiles": "O=c1nc2c(cn1[C@H]1C[C@H](O)[C@@H](CO)O1)CCON2", "cell line": "MT-4", "strain": "IIIB", "value": ">300 µM"}
{"smiles": "O=C1Nc2ccc(Cl)cc2C(C#Cc2ccco2)(C(F)(F)F)O1", "value": "<0.0038 µM"}
{"smiles": "CCOC(=O)C(C(=O)OCC)=C1C=CN([C@H]2C[C@H](N=[N+]=[N-])[C@@H](CO)O2)C(=O)N1", "cell line": "MT-4", "strain": "IIIB", "value": ">300 µM"}
{"smiles": "CCO[C@]12CS(=O)(=O)O[C@@]13[C@@H](CN2)O[C@@H](n1cc(C)c(=O)[nH]c1=O)[C@@H]3OC(C)=O", "cell line": "CEM", "strain": "IIIB", "value": ">250 µM"}
{"smiles": "CC(C)c1c(Cc2cccc3ccccc23)n(COCc2ccccc2)c(=O)[nH]c1=O", "cell line": "MT-4", "strain": "LAV", "value": "0.021 µM"}
{"smiles": "C[C@H](N)C(=O)O", "cell line": "CEM", "strain": "IIIB", "value": "500 µM"}
{"smiles": "CC(C)C(=O)c1cnc([C@H](Cc2ccccc2)C[C@H](O)[C@H](Cc2ccccc2)NC(=O)[C@@H](NC(=O)OCc2ccccc2)C(C)C)[nH]1", "cell line": "MOLT-4", "strain": "IIIB", "value": "0.13 µM"}
{"smiles": "Cc1cn([C@@H]2O[C@@H]3CN[C@@]4(C#N)CS(=O)(=O)O[C@@]34[C@H]2O)c(=O)[nH]c1=O", "cell line": "CEM", "strain": "IIIB", "value": ">250 µM"}
{"smiles": "C[C@H]1O[C@](C#CC2CC2)(C(F)(F)F)c2cc(Cl)ccc2NC1=O", "cell line": "MT-2", "strain": "RF", "value": "<0.007 µM"}
{"smiles": "CCc1c(Cc2cccc3ccccc23)n(COCc2ccccc2)c(=O)[nH]c1=O", "cell line": "CEM", "strain": "LAV", "value": "0.042 µM"}
{"smiles": "Cc1cc(/C=C/C#N)cc(C)c1Nc1nc(Nc2ccc(C#N)cc2)ncc1C(O)C#Cc1cncn1C", "cell line": "MT-4", "strain": "PSI (IIIB)", "value": "145 µM"}
{"smiles": "CCCn1c(Sc2cc[n+]([O-])cc2)c([N+](=O)[O-])c(=O)[nH]c1=O", "cell line": "MT-4", "strain": "IIIB", "value": ">0.313 µg/mL"}
{"smiles": "O=C(O)C(=O)/C=C(\\O)c1cc(Cc2ccc(F)cc2)cn(Cc2cccc(Cl)c2)c1=O", "cell line": "MAGI", "value": "1.2 µM"}
{"smiles": "O=c1c([N+](=O)[O-])c(Sc2ccccc2)nc2[nH]c(-c3ccccc3)cn12", "cell line": "MT-4", "strain": "IIIB", "value": ">2.56 µg/mL"}
{"smiles": "COc1cccc2c1nc(-c1ccccc1F)n2Cc1ccc(C)cc1", "cell line": "MT-4", "strain": "IIIB", "value": ">11.7 µg/mL"}
{"smiles": "CCCn1c(Sc2ccccc2)c(N)c(=O)[nH]c1=O", "cell line": "MT-4", "strain": "IIIB", "value": ">44.3 µg/mL"}
{"smiles": "CN1OCCc2cn([C@H]3C[C@H](O)[C@@H](CO)O3)c(=O)nc21", "cell line": "MT-4", "strain": "IIIB", "value": ">300 µM"}
{"smiles": "CC(C)=CCOC1(C(F)(F)F)OC(=O)Nc2ccc(F)c(F)c21", "changes": "RT-K103N", "value": "<0.065 µM"}
{"smiles": "Nc1nc(Sc2ccccc2)c([N+](=O)[O-])c(=O)[nH]1", "cell line": "MT-4", "strain": "IIIB", "value": ">88.07 µg/mL"}
{"smiles": "C/C=C/COC1(C(F)(F)F)OC(=O)Nc2ccc(F)cc21", "value": "<0.00885 µM"}
{"smiles": "CC(C)[C@H](NC(=O)[C@H](C)C[C@H](O)[C@H](Cc1ccccc1)NC(=O)[C@H](C)NC(=O)OCc1ccccc1)C(=O)N[C@H](CO)C(C)C", "cell line": "MOLT-4", "strain": "IIIB", "value": "0.88 µM"}
{"smiles": "O=C1Nc2ccc(F)c(F)c2C(C#Cc2cccs2)(C(F)(F)F)O1", "changes": "RT-K103N", "value": "<0.2797 µM"}
{"smiles": "CC(NC(=O)CCCc1nc(-c2ccccn2)no1)c1nc2ccccc2s1", "cell line": "MAGI", "value": ">100 µM"}
{"smiles": "O=C(O)C(=O)/C=C(\\O)c1cc(Cc2ccc(F)cc2)cn(Cc2ccccc2F)c1=O", "cell line": "MAGI", "value": "0.7 µM"}
{"smiles": "CCOC(=O)C(C(=O)OCC)=C1NC(=O)N([C@H]2C[C@H](N=[N+]=[N-])[C@@H](CO)O2)C=C1C", "cell line": "MT-4", "strain": "IIIB", "value": "40 µM"}
{"smiles": "COC[C@@H](c1ccc(C(F)(F)F)cc1)N1CCN(C2(C)CCN(C(=O)c3c(C)ncnc3C)CC2)C[C@@H]1C", "cell line": "TZM-bl", "strain": "S", "changes": "G514V", "value": "0.0044 µM"}
{"smiles": "COc1cccc2c1nc(-c1ccccc1F)n2Cc1ccc(C#N)cc1", "cell line": "MT-4", "strain": "IIIB", "value": "12.23 µg/mL"}
{"smiles": "CCS[C@]12CS(=O)(=O)O[C@@]13[C@@H](CN2)O[C@@H](n1cc(C)c(=O)[nH]c1=O)[C@@H]3O", "cell line": "CEM", "strain": "IIIB", "value": "30 µM"}
{"smiles": "CCC[C@H](NP(=O)(OC[C@@H]1C=C[C@H](n2cc(C)c(=O)[nH]c2=O)O1)Oc1ccccc1)C(=O)OC", "cell line": "CEM", "value": "0.42 µM"}
{"smiles": "Cc1ccc2cc(C#N)c(SCC(=O)Nc3nccs3)nc2c1", "cell line": "MAGI", "value": ">100 µM"}
{"smiles": "CCOCn1c(Cc2ccccc2)c(I)c(=O)[nH]c1=O", "cell line": "MT-4", "strain": "IIIB", "value": "0.021 µM"}
{"smiles": "CCCC(CCC)(NP(=O)(OC[C@@H]1C=C[C@H](n2cc(C)c(=O)[nH]c2=O)O1)Oc1ccccc1)C(=O)OC", "cell line": "CEM", "value": "≥50 µM"}
{"smiles": "O=C1Nc2ccc(Cl)cc2[C@@](C#CC2CC2)(C(F)(F)F)N1", "changes": "RT-K103N", "value": "<0.01 µM"}
{"smiles": "Nc1ncnc2c1ncn2OCCOCP(=O)(O)O", "cell line": "PBMC", "value": "0.3 µM"}
{"smiles": "[N-]=[N+]=N[C@H]1C[C@H](n2cc(CCO)c(=O)[nH]c2=O)O[C@@H]1CO", "cell line": "MT-4", "strain": "IIIB", "value": ">300 µM"}
{"smiles": "O=c1[nH]c(=O)n([C@H]2C[C@H](O)[C@@H](CO)O2)cc1F", "cell line": "CEM + CEM TK-", "value": "9.1 µM"}
{"smiles": "Nc1nc(N)c2ncn(OCCOCP(=O)(O)O)c2n1", "cell line": "PBMC", "value": "0.03 µM"}
{"smiles": "NC(=O)C(N)Cc1c[nH]c2ccccc12", "cell line": "CEM", "strain": "IIIB", "value": "500 µM"}
{"smiles": "Cc1cn([C@@H]2O[C@@H]3CN[C@@]4(OCCOc5ccccc5)CS(=O)(=O)O[C@@]34[C@H]2O[Si](C)(C)C(C)(C)C)c(=O)[nH]c1=O", "cell line": "CEM", "strain": "IIIB", "value": ">5 µM"}
{"smiles": "O=C(O)C(=O)/C=C(\\O)c1cc(Cc2ccccc2)cn(Cc2ccc(F)cc2F)c1=O", "cell line": "MAGI", "value": "0.6 µM"}
{"smiles": "Nc1nc(=O)n([C@@H]2C[C@@H](F)[C@H](CO)O2)cc1Cl", "cell line": "CEM + CEM/O", "strain": "IIIB", "value": ">50 µM"}
{"smiles": "CC(C)[C@H](NC(=O)[C@H](C/C=C/c1ccccc1)C[C@H](O)[C@H](Cc1ccccc1)NC(=O)OC(C)(C)C)c1ncc[nH]1", "cell line": "MOLT-4", "strain": "IIIB", "value": "0.33 µM"}
{"smiles": "CCc1c(Cc2ccc3ccccc3c2)n(COC)c(=O)[nH]c1=O", "cell line": "CEM", "strain": "LAV", "value": ">12.34 µM"}
{"smiles": "Cn1c(Sc2cc[n+]([O-])cc2)c([N+](=O)[O-])c(=O)n(C)c1=O", "cell line": "MT-4", "strain": "IIIB", "value": ">0.275 µg/mL"}
{"smiles": "CC(C)(C)C(=O)SCCOP(=O)(OCCSC(=O)C(C)(C)C)OC[C@@H]1O[C@H](n2cc(Cl)c(=O)[nH]c2=O)C[C@H]1F", "cell line": "CEM + CEM/O", "strain": "IIIB", "value": ">50 µM"}
{"smiles": "COC(O)c1cnc(Nc2ccc(C#N)cc2)nc1Nc1c(C)cc(/C=C/C#N)cc1C", "cell line": "MT-4", "strain": "IIIB", "value": "0.00331 µM"}
{"smiles": "O=C1Nc2ccc(Cl)cc2C(C#Cc2ccccn2)(C(F)(F)F)O1", "value": "<0.00539 µM"}
{"smiles": "COP(=O)(c1cc(C)cc(CCC#N)c1)c1c(C(N)=O)[nH]c2ccc(Cl)c(F)c12", "cell line": "PBMC", "strain": "Clinical isolate", "changes": "K103N/Y181C", "value": "0.0027 µM"}
{"smiles": "CN1OCc2cn([C@@H]3O[C@H](CO)[C@H]4OC(C)(C)O[C@H]43)c(=O)nc21", "cell line": "MT-4", "strain": "IIIB", "value": ">300 µM"}
{"smiles": "O=C(O)C(=O)/C=C(\\O)c1cc(Cc2ccc(F)c(Cl)c2)cn(Cc2c(F)cccc2F)c1=O", "cell line": "MAGI", "value": "5.1 µM"}
{"smiles": "CC(C)[C@H](NC(=O)[C@H](Cc1ccccc1)C[C@H](O)[C@H](Cc1ccccc1)NC(=O)OC(C)(C)C)C(N)=O", "cell line": "MOLT-4", "strain": "IIIB", "value": "0.17 µM"}
{"smiles": "C/C=C\\COC1(C(F)(F)F)OC(=O)Nc2ccc(Cl)cc21", "changes": "RT-K103N", "value": "<0.237 µM"}
{"smiles": "Cc1c(Cc2cccc3ccccc23)n(COCc2ccccc2)c(=O)[nH]c1=O", "cell line": "MT-4", "strain": "LAV", "value": "0.041 µM"}
{"smiles": "CCOCn1c(Cc2ccccc2)c(CO)c(=O)[nH]c1=O", "changes": "RT-Y181C", "value": ">100 µM"}
{"smiles": "CCc1c(Cc2cccc3ccccc23)n(COCCO)c(=O)[nH]c1=O", "cell line": "CEM", "strain": "LAV", "value": "0.762 µM"}
{"smiles": "CC(C)(C)C(=O)SCCOP(=O)(OCCSC(=O)C(C)(C)C)OC[C@H]1O[C@@H](n2cc(Cl)c(=O)[nH]c2=O)C[C@@H]1F", "cell line": "CEM + CEM/O", "strain": "IIIB", "value": "2.1 µM"}
{"smiles": "COc1cccc2c1nc(-c1ccccc1F)n2Cc1ccccc1F", "cell line": "MT-4", "strain": "IIIB", "value": "0.019 µg/mL"}
{"smiles": "Nc1nc(Cl)c2ncn(OCCOCP(=O)(O)O)c2n1", "cell line": "PBMC", "value": "<9 µM"}
{"smiles": "Cc1cc(/C=C/C#N)cc(C)c1Nc1nc(Nc2ccc(C#N)cc2)ncc1C(O)C1CCCC1", "cell line": "MT-4", "strain": "PSI (IIIB)", "value": "1150 µM"}
{"smiles": "COc1cccc2c1nc(-c1ccccc1F)n2Cc1ccccc1C", "cell line": "MT-4", "strain": "IIIB", "value": "0.13 µg/mL"}
{"smiles": "Cc1cc(/C=C/C#N)cc(C)c1Nc1nc(Nc2ccc(C#N)cc2)ncc1C(O)c1cn2ccnc2s1", "cell line": "MT-4", "strain": "PSI (IIIB)", "value": "1000 µM"}
{"smiles": "C[C@@H](N)C(=O)N1CCC[C@H]1C(=O)NCC(=O)N[C@@H](Cc1c[nH]c2ccccc12)C(N)=O", "cell line": "CEM", "strain": "IIIB", "value": "500 µM"}
{"smiles": "O=C(O)C(=O)/C=C(\\O)c1cc(Cc2ccc(F)cc2F)cn(Cc2ccc(F)cc2)c1=O", "cell line": "MAGI", "value": "0.6 µM"}
{"smiles": "COCn1c(Cc2ccc3ccccc3c2)c(C)c(=O)[nH]c1=O", "cell line": "CEM", "strain": "LAV", "value": "25.8 µM"}
{"smiles": "Cc1cc(/C=C/C#N)cc(C)c1Nc1nc(Nc2ccc(C#N)cc2)ncc1C(O)OCc1cccnc1", "cell line": "MT-4", "strain": "MDR", "value": "437 µM"}
{"smiles": "O=C1Nc2ccc(F)c(F)c2C(OCC=C(Cl)Cl)(C(F)(F)F)O1", "value": "<0.00635 µM"}
{"smiles": "CC(C)CC(N)C(N)=O", "cell line": "CEM", "strain": "IIIB", "value": "500 µM"}
{"smiles": "CC[C@@H]1O[C@](/C=C/C2CC2)(C(F)(F)F)c2cc(F)ccc2NC1=O", "changes": "RT-K103N", "value": "<0.07 µM"}
{"smiles": "Cc1cc(/C=C/C#N)cc(C)c1Nc1nc(Nc2ccc(C#N)cc2)ncc1C(O)n1ccnc1", "cell line": "MT-4", "strain": "Y181C", "value": "0.0195 µM"}
{"smiles": "Cc1cc(C)cc(C[C@@H]2[C@H](O)[C@@H](O)[C@@H](Cc3ccccc3)N(Cc3ccc4[nH]nc(N)c4c3)C(=O)N2Cc2ccccc2)c1", "strain": "RF", "value": "<0.05 µM"}
{"smiles": "CCOCn1c(Cc2ccccc2)c(C#N)c(=O)n(COCC)c1=O", "cell line": "MT-4", "strain": "IIIB", "value": ">100 µM"}
{"smiles": "C[C@@H]1O[C@](C#CC2CC2)(C(F)(F)F)c2cc(Cl)ccc2NC1=O", "cell line": "MT-2", "strain": "RF", "value": "<0.0022 µM"}
{"smiles": "COCn1c(Cc2cccc3ccccc23)c(C)c(=O)[nH]c1=O", "cell line": "MT-4", "strain": "LAV", "value": "1.451 µM"}
{"smiles": "COc1cccc2c1nc(-c1ccccc1F)n2Cc1ccc(C(C)(C)C)cc1", "cell line": "MT-4", "strain": "IIIB", "value": ">2.5 µg/mL"}

ECn: concentration that inhibits the pathogen or its effect by n%.